Measurements published in publication PMC12587552, “A nitrogen-containing diphyllin derivative C156-P1 exhibited broad-spectrum antiviral activity against Flaviviridae viruses by preventing endosomal acidification” (Antimicrobial Agents and Chemotherapy, 2025).

System: DENV-2

SMILES: COc1cc2c(OCC#N)c3c(c(-c4ccc5c(c4)OCO5)c2cc1OC)C(=O)OC3 [Compound C156-P1]
- Antiviral activity against DENV-2 relative to parental compound DP (fold greater) (A549 cells): ~300 fold
- SIs, bound stated (DENV-2 in Vero, HUVEC, and Huh7 cells): > 100
